PubChem BioAssay AID624099 – ICCB-Longwood – 2012

- Assay: 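Human genes that papillomavirus E2 requires to repress the HPV18 LCR promoter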 (primary screen)
- System: human C33A cervical carcinoma cells (HPV-negative) stably expressing BPV1 E2 and an HPV18 LCR luciferase reporter
- Reagents: siRNA pool against human genes, 40 nM
- Time to read-out: 72 h
- Measurement: 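HPV18 LCR reporter light per well, converted to plate-wise z-scores that exclude control wells, and averaged over triplicate plates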
- Direction: mean z-score and z-score: higher = stronger reporter signal, weaker E2 silencing
- Hit rule: 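Mean z ≥ 2 together with z ≥ 2 in two or more of the three replicates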
Here is a random part of about 21,000 deposited reagents. 497 of all reagents (2.4%) count as active. 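Higher z means weaker E2 silencing; only reporter increases were scored, and knock-downs that hurt cell survival may mask genuine repressor factors.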 Unmarked entries are inactive. Reagents against one gene are numbered here.

JPT1 (Jupiter microtubule associated homolog 1) | mean z-score = 0.23; z-score, replicate A = -0.41; z-score, replicate B = 0.51; z-score, replicate C = 0.6
LNPEP (leucyl and cystinyl aminopeptidase) #1 | mean z-score = 0.81; z-score, replicate A = 0.69; z-score, replicate B = 0.88; z-score, replicate C = 0.85
LNPEP (leucyl and cystinyl aminopeptidase) #2 | mean z-score = 0.22; z-score, replicate A = 0.18; z-score, replicate B = 0.37; z-score, replicate C = 0.11
GTF2A2 (general transcription factor IIA subunit 2) | mean z-score = -1.26; z-score, replicate A = -1.06; z-score, replicate B = -1.76; z-score, replicate C = -0.97
NCEH1 (neutral cholesterol ester hydrolase 1) | mean z-score = 0.73; z-score, replicate A = 0.59; z-score, replicate B = 0.87; z-score, replicate C = 0.73
MERTK (MER proto-oncogene, tyrosine kinase) | mean z-score = 0.8; z-score, replicate A = 0.89; z-score, replicate B = 0.63; z-score, replicate C = 0.88
PDE3A (phosphodiesterase 3A) | mean z-score = 0.16; z-score, replicate A = 0.1; z-score, replicate B = 0.37; z-score, replicate C = 0
NFKB1 (nuclear factor kappa B subunit 1) | mean z-score = 0.05; z-score, replicate A = 0.31; z-score, replicate B = 0; z-score, replicate C = -0.14
KTN1 (kinectin 1) | mean z-score = 1.64; z-score, replicate A = 1.61; z-score, replicate B = 1.52; z-score, replicate C = 1.77
EIF4EBP1 | mean z-score = -1.11; z-score, replicate A = -0.88; z-score, replicate B = -1.15; z-score, replicate C = -1.31
RTP4 (receptor transporter protein 4) | mean z-score = 0.93; z-score, replicate A = 0.97; z-score, replicate B = 1.17; z-score, replicate C = 0.65
RORC (RAR related orphan receptor C) | mean z-score = 0.63; z-score, replicate A = 0.51; z-score, replicate B = 0.76; z-score, replicate C = 0.61
CDK5RAP3 (CDK5 regulatory subunit associated protein 3) | mean z-score = -0.68; z-score, replicate A = -0.73; z-score, replicate B = -0.49; z-score, replicate C = -0.83
TNFRSF10A-DT (TNFRSF10A divergent transcript) | mean z-score = 0.59; z-score, replicate A = 0.66; z-score, replicate B = 0.45; z-score, replicate C = 0.67

Ordered by “mean z-score” (ascending): 2 of the entries above
CDK5RAP3 (CDK5 regulatory subunit associated protein 3) | mean z-score = -0.68; z-score, replicate A = -0.73; z-score, replicate B = -0.49; z-score, replicate C = -0.83
TNFRSF10A-DT (TNFRSF10A divergent transcript) | mean z-score = 0.59; z-score, replicate A = 0.66; z-score, replicate B = 0.45; z-score, replicate C = 0.67
